Measured values from publication PMC9628480, “Discovery and structural characterization of chicoric acid as a SARS-CoV-2 nucleocapsid protein ligand and RNA binding disruptor” (Scientific Reports, 2022).

Tests used:
[1] = target: T1, SARS-CoV-2 N protein-RNA1 interaction (Severe acute respiratory syndrome coronavirus 2, UniProt P0DTC9); assay: biochemical; conditions: IC50 for blocking the N protein-RNA1 interaction
[2] = target: T1, SARS-CoV-2 N protein-RNA1 interaction; conditions: read-out: IC50 for blocking the N protein-RNA1 interaction

Compound	IC50 [1]	IC50 [2]
O=C(O)C[C@@H]1C(=O)O[C@H]2[C@H](OC(=O)c3cc(O)c(O)c(O)c3)[C@@H](OC(=O)c3cc(O)c(O)c4c3[C@H]1[C@H](O)C(=O)O4)[C@H](OC(=O)c1cc(O)c(O)c(O)c1)O[C@@H]2COC(=O)c1cc(O)c(O)c(O)c1 [Chebulinic acid]	200 nM	–
Chlorophyllin A	–	10800 nM
Chlorophyllin B	–	2200 nM

Where two headings read alike, the source gives them in different places.
